# The supplement of paper PMC3578754
# Fold change is the IC50 on the isolate divided by the IC50 on a reference virus; 1 = unchanged, higher = more resistant. Changes are given against the subtype B consensus. No active / inactive call. The values were gathered from many studies (numbered anew) with different assays, which the source does not name. Most viruses are clinical isolates; some are laboratory strains or clones with known resistance changes. Isolates with mixed residues are left out; stretches that were not sequenced show no change. Round top values that many isolates share are read here as limits; other very high values and 0.1 may be limits too.
# Key:
# Assay in all cases: fold change of IC50 against reference virus; higher = more resistant
# abacavir = compound: Nc1nc(NC2CC2)c2ncn([C@H]3C=C[C@@H](CO)C3)c2n1 [abacavir]
# Procedure: (§1)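 Cell-culture drug susceptibility tests of virus bearing the reverse transcriptase of each isolate, gathered from many studies.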
# didanosine = compound: O=c1[nH]cnc2c1ncn2[C@H]1CC[C@@H](CO)O1 [didanosine]
# Procedure: as §1
# stavudine = compound: Cc1cn([C@H]2C=C[C@@H](CO)O2)c(=O)[nH]c1=O [stavudine]
# Procedure: as §1
# tenofovir = compound: C[C@H](Cn1cnc2c(N)ncnc21)OCP(=O)(O)O [tenofovir]
# Procedure: as §1
# zidovudine = compound: Cc1cn([C@H]2C[C@H](N=[N+]=[N-])[C@@H](CO)O2)c(=O)[nH]c1=O [zidovudine]
# Procedure: as §1
# nevirapine = compound: Cc1ccnc2c1NC(=O)c1cccnc1N2C1CC1 [nevirapine]
# Procedure: as §1
# efavirenz = compound: O=C1Nc2ccc(Cl)cc2[C@@](C#CC2CC2)(C(F)(F)F)O1 [efavirenz]
# Procedure: as §1
# delavirdine = compound: CC(C)Nc1cccnc1N1CCN(C(=O)c2cc3cc(NS(C)(=O)=O)ccc3[nH]2)CC1 [delavirdine]
# Procedure: as §1
Test System,fold change of IC50 against reference virus (abacavir),fold change of IC50 against reference virus (didanosine),fold change of IC50 against reference virus (stavudine),fold change of IC50 against reference virus (tenofovir),fold change of IC50 against reference virus (zidovudine),fold change of IC50 against reference virus (nevirapine),fold change of IC50 against reference virus (efavirenz),fold change of IC50 against reference virus (delavirdine)
"HIV-1 isolate 1233 (reverse transcriptase changes: K65R, study 75)",2.3,1.6,1.6,1.7,0.4,,,
"HIV-1 isolate 940 (reverse transcriptase changes: K122E S162C K173Q, study 15)",0.9,0.9,1,0.8,0.6,0.7,0.9,1.2
"HIV-1 isolate 1580 (reverse transcriptase changes: A98S K102Q G196E V245K I293V, study 15)",1.1,1.1,0.9,0.9,1.1,1.7,1.3,1
"HIV-1 isolate 957 (reverse transcriptase changes: K65R K70E, study 31)",3.1,,,2.3,,,,
"HIV-1 isolate 41 (reverse transcriptase changes: R83K Q207E R211K T215Y T286A, study 100)",1.5,0.9,1.4,1.4,15,0.6,0.5,0.5
"HIV-1 isolate 1493 (reverse transcriptase changes: K65N L100I K103N, study 92)",2.1,1.4,,1.7,,47,294,177
"HIV-1 isolate 1598 (reverse transcriptase changes: K122E Q145E F214L A272P K277R M357T A376T A400T N447S D460N S468T S519N, study 97)",0.6,1,1.4,1,1.5,0.7,0.4,
"HIV-1 isolate 681 (reverse transcriptase changes: K65N L100I K103N Y115F, study 92)",7.4,1.5,,2.6,,118,294,177
"HIV-1 isolate 1089 (reverse transcriptase changes: K65R A98S K122E I135T M184V G196E F214L V245Q I293V E297K, study 134)",9.1,3,1.2,1.1,0.3,0.6,0.4,0.5
"HIV-1 isolate 213 (reverse transcriptase changes: V35I D67N K70R R83K V90I D123E Y181C G196E R211K T215I K219E L228R V245M A272P K275R Q278H V292I I293V E297Q K311R, study 15)",0.5,2,1.6,1,5.2,106,1,99
"HIV-1 isolate 904 (reverse transcriptase changes: M41L A62V T69D V75T K101E D123E I135T I142V Y181C G190A L210W R211K T215Y L228R A272S K277R K281R I293V E297K Q334E, study 15)",4.2,2.1,3.3,2.6,86,≥ 400,245,27
"HIV-1 isolate 718 (reverse transcriptase changes: K70E, study 31)",1.4,,,1.2,,,,
"HIV-1 isolate 460 (reverse transcriptase changes: E28A K64R K70R L74I V90I K102R K103N Y115F D123E S162A E169D M184V R199A D218E F227L T240A Y271P V276K C280R T290D V292I, study 15)",10,1.9,0.8,0.6,0.7,200,200,200
"HIV-1 isolate 792 (reverse transcriptase changes: M41L V60I V118I D121Y K122E I135M M184V L210W T215Y V245R A272P, study 15)",7.2,1.8,2.6,2.3,29,0.9,0.6,0.4
"HIV-1 isolate 731 (reverse transcriptase changes: K20R T69N K70R A98S K103N I142V V245K I293V, study 15)",0.9,0.9,0.8,1.4,7.5,219,72,≥ 250
"HIV-1 isolate 376 (reverse transcriptase changes: S162C I178M M184I G196K R211K A272P Q278H K281R T286A T296S, study 15)",1.6,1,0.9,0.5,0.3,0.6,0.6,1
"HIV-1 isolate 281 (reverse transcriptase changes: K65R S68G, study 75)",2.4,1.6,1.8,1.9,0.6,,,
"HIV-1 isolate 456 (reverse transcriptase changes: V35T T39L K43N T69N K102Q K122E I142V S162C I178L T200E Q207E E224D V245L A272P I293V, study 15)",1.2,1.1,1,0.8,0.6,0.7,0.5,0.5
"HIV-1 isolate 247 (reverse transcriptase changes: K122E Q145C F214L A272P K277R M357T A376T A400T N447S D460N S468T S519N, study 97)",0.7,1,1.1,1,0.8,0.7,1.5,
"HIV-1 isolate 783 (reverse transcriptase changes: T39A K65R R83K K122E K166R D177E I178M M184V Q207K R211K D237E V245E, study 15)",7.9,3.1,1,0.9,0.2,0.5,0.3,0.4
"HIV-1 isolate 487 (reverse transcriptase changes: K102Q S162C K277R, study 108)",1,1,1,1,1,1,1,1
"HIV-1 isolate 133 (reverse transcriptase changes: K102Q S162C K277R I293V R358K V435I S468P K550G, study 145)",0.7,0.9,0.8,0.9,0.8,0.5,0.7,0.5
"HIV-1 isolate 676 (reverse transcriptase changes: K65R L100I K103N I244V V245M D250E A272P K281R T286A E297K, study 15)",1.9,1.5,1.1,1.5,,46,1500,800
"HIV-1 isolate 107 (reverse transcriptase changes: V35T K49R K65R A98G K101E K122E A158S E169D Y181C G190A R211A V245M K277R T286A A288S E297A, study 15)",3.9,2.3,1.9,3,0.6,893,1500,800
"HIV-1 isolate 972 (reverse transcriptase changes: T39A S68G K103N D123E I135T D177E T200A R211K, study 15)",0.9,1,1,0.9,1.5,196,73,≥ 250
"HIV-1 isolate 855 (reverse transcriptase changes: A62V K65R, study 75)",1.6,1.3,1.4,1.8,0.5,,,
"HIV-1 isolate 810 (reverse transcriptase changes: K122E Q145L F214L A272P K277R M357T A376T A400T N447S D460N S468T S519N, study 97)",12,19.4,17.7,375,50,114,150,
"HIV-1 isolate 1347 (reverse transcriptase changes: K122E Q145M F214L A272P K277R M357T A376T A400T N447S D460N S468T S519N, study 97)",12,19.4,17.7,2560,50,114,150,
